Data as given in PubChem BioAssay AID504761 (Drosophila RNAi Screening Center, 2011)

- Screen: 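Insect host genes that dengue virus relies on to spread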 (primary screen)
- Cells: D.Mel-2 cells from Drosophila
- Reagent: long dsRNA against Drosophila genes
- Challenge: infection with dengue virus type 2; dose and infection time not stated
- Read-out: 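Per well on two replicate plates, imaging gave the percent of cells positive for viral envelope protein, ranked by infection, and a nuclear count of cells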
- Direction: infection score: higher = more virus-infected cells; cell count: higher = more cells in the well
- Rule for the call: 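Low infection ranks in the two replicates (chance level up to 0.065) followed by a retest with a 1.5-fold or larger significant decrease, p below 0.05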
- Calls: active = confirmed: knock-down lowers infection; inactive = not picked or not confirmed
In all, the deposit lists about 22,000 reagents; shown is an unselected part of those that have a named target and a result. In the full data, 116 (0.52%) got an active call. 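Calls depend on retest data that are not deposited; infection was ranked per plate without normalising between plates; the unit of the infection score is not given.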 Raw values vary from plate to plate and are shown uncorrected. A number with no mark means an inactive call. The numbers tell different reagents against one gene apart. A plus sign joins genes that one reagent is predicted to hit. Further read-outs or replicates are left out here. Reagent sequences are not shown. Not stated in the record: the amount of reagent, the time to read-out.

CG5440 #1 showed infection score, replicate 1 = 1.08; cell count, replicate 1 = 6293. Depletion of CG5440 #2 came out at: infection score, replicate 1 = 2.11; cell count, replicate 1 = 570. For eIF4G1 #1 the deposit lists infection score, replicate 1 = 7.71; cell count, replicate 1 = 6924. Silencing of eIF4G1 #2 resulted in: infection score, replicate 1 = 21.1; cell count, replicate 1 = 5702. Knock-down of 7B2 came out at: infection score, replicate 1 = 4.99; cell count, replicate 1 = 6989. With knock-down of CG17287 the results were infection score, replicate 1 = 17.9; cell count, replicate 1 = 4456.

2 consecutive reagents already listed, for reference:
7B2 — infection score, replicate 1: 4.99; cell count, replicate 1: 6989
CG17287 — infection score, replicate 1: 17.9; cell count, replicate 1: 4456

The list goes on:
Nse1 gave infection score, replicate 1 = 5.4; cell count, replicate 1 = 6004. Ubc84D #1 showed infection score, replicate 1 = 4.09; cell count, replicate 1 = 6700. With knock-down of Ubc84D #2 the results were infection score, replicate 1 = 8.12; cell count, replicate 1 = 5862. Prosalpha6T showed infection score, replicate 1 = 6.16; cell count, replicate 1 = 6558. Knock-down of inaF-B + inaF-D + inaF-C + 1 more #1 came out at: infection score, replicate 1 = 20.3; cell count, replicate 1 = 5665. Silencing of inaF-B + inaF-D + inaF-C + 1 more #2 resulted in: infection score, replicate 1 = 12.3; cell count, replicate 1 = 5142.
